A mixed list of measured activities; the numbers were collected in NIAID ChemDB.

Shared fields: whole-cell or culture tests

ECn: concentration that inhibits the pathogen or its effect by n%.

{"SMILES": "CO[C@H]1/C=C/O[C@@]2(C)Oc3c(C)c(O)c4c(O)c(c(/C=N/N5CCN(C6CCCC6)CC5)c(O)c4c3C2=O)NC(=O)/C(C)=C\\C=C\\[C@H](C)[C@H](O)[C@@H](C)[C@@H](O)[C@@H](C)[C@H](OC(C)=O)[C@@H]1C", "strain": "9-Feb", "measure": "MIC", "agent": "Mycobacterium avium intracellulare", "value": "0.5 µg/mL"}
{"SMILES": "C[C@@H](c1ncncc1F)[C@](O)(Cn1cncn1)c1ccc(F)cc1F", "strain": "VG IIa", "measure": "MIC50", "read by": "broth dilution", "agent": "Cryptococcus gattii", "value": "125 µg/mL"}
{"SMILES": "Cc1ccc(CCCOc2c(C)cc(C#N)cc2C)o1", "measure": "EC50", "read by": "cytopathic effect", "agent": "Enterovirus", "cells": "HeLa", "value": "0.033–0.659 µg/mL"}
{"SMILES": "CCC(CC)[C@H](NC(C)=O)[C@@H]1C[C@@H](C(=O)O)C[C@H]1N=C(N)N", "strain": "LEE/40", "measure": "EC50", "agent": "Influenza B virus", "cells": "MDCK", "value": "8 µM"}
{"SMILES": "CC(C)(O)c1cn(-c2ccccc2)nn1", "strain": "URM 3719", "measure": "inhibition", "dose": "2048 µg/mL", "read by": "broth dilution", "agent": "Candida albicans", "value": "0%"}
{"SMILES": "N#Cc1ccc(CSc2ncnc3c2ncn3[C@@H]2O[C@H](CO)[C@@H](O)[C@H]2O)cc1", "strain": "RH adenosine kinase-deficient", "measure": "inhibition", "dose": "50 µM", "agent": "Toxoplasma gondii", "value": "0%"}
{"SMILES": "CS[C@H]1C[C@@H](n2cnc3cc4cncnc4cc32)[C@H](O)[C@@H]1O", "measure": "EC50", "read by": "cytopathic effect", "agent": "Measles virus", "cells": "CV-1", "value": "100 µg/mL"}
{"SMILES": "Cc1ccc2oc(=O)n(-c3ccc(Cl)c(Cl)c3)c(=S)c2c1", "strain": "My 235/80", "measure": "MIC", "setting": "14 d", "agent": "Mycobacterium kansasii", "value": "4 µM"}
{"SMILES": "Nc1nc2c(ncn2C=C2CC2CO)c(=O)[nH]1", "strain": "VR4991 (ganciclovir-resistant)", "measure": "EC90", "read by": "plaque count", "agent": "Human cytomegalovirus", "value": "4.7 µM"}
{"SMILES": "S=c1oc2ccc(Br)cc2c(=S)n1-c1ccc(Cl)cc1", "strain": "6509/96", "measure": "MIC", "setting": "14 d", "agent": "Mycobacterium kansasii", "value": "4 µM"}
{"SMILES": "Nc1ncnc2c1ncn2[C@@H]1C[C@H](N)[C@@H](O)[C@H]1O", "strain": "CC", "measure": "EC50", "read by": "neutral red", "agent": "Measles virus", "cells": "CV-1", "value": "10 µg/mL"}
{"SMILES": "Cc1ccc(CCCOc2c(C)cc(-c3noc(C)n3)cc2C)nn1", "measure": "EC50", "read by": "cytopathic effect", "agent": "Enterovirus", "cells": "HeLa", "value": "0.033–0.659 µg/mL"}
{"SMILES": "CCCCCCCCCCCCOC(=O)[C@]1(O)C[C@@H](O)[C@@H](O)[C@H](OC(=O)/C=C/c2ccc(O)c(O)c2)C1", "strain": "SLV 549", "measure": "MIC80", "read by": "absorbance", "agent": "Aspergillus nomius", "value": ">1500 µg/mL"}
{"SMILES": "Cc1cc(O/C=C/Cc2ccc(Cl)nn2)cc(C)c1-c1noc(C(F)(F)F)n1", "measure": "EC50", "read by": "cytopathic effect", "agent": "Enterovirus", "cells": "HeLa", "value": "0.033–0.659 µg/mL"}
{"SMILES": "O=C(NCc1ccc(Cl)cc1)c1c[nH]c2ccc(CCCO)cc2c1=O", "strain": "ADI", "measure": "EC50", "read by": "plaque count", "agent": "Human cytomegalovirus", "value": "0.95 µM"}
{"SMILES": "COc1ccc(CCCOc2cc(C)c(-c3noc(C(F)F)n3)c(C)c2)nn1", "measure": "EC50", "read by": "cytopathic effect", "agent": "Enterovirus", "cells": "HeLa", "value": "0.033–0.659 µg/mL"}
{"SMILES": "Cn1cc(C(=O)NCc2ccc(Cl)cc2)c(=O)c2cc(CN3CCOCC3)ccc21", "strain": "NE varicella isolate", "measure": "inhibition", "dose": "1.9 µM", "read by": "plaque count", "agent": "Varicella zoster virus", "cells": "HFF", "value": "90%"}
{"SMILES": "OC[C@H]1O[C@@H](n2cnc3c(SCc4ccc(Cl)cc4Cl)ncnc32)[C@H](O)[C@@H]1O", "strain": "RH (WILD TYPE)", "measure": "inhibition", "dose": "5 µM", "agent": "Toxoplasma gondii", "value": "5.2%"}
{"SMILES": "Cc1ccc2oc(=O)n(-c3cccc(F)c3)c(=S)c2c1", "strain": "6509/96", "measure": "MIC", "setting": "21 d", "agent": "Mycobacterium kansasii", "value": "16 µM"}
{"SMILES": "C/C=C\\[C@@H]1C[C@H](C(=O)O)N[C@H]1[C@@H](NC(C)=O)[C@](C)(CCC)OC", "strain": "Isolate G62", "measure": "EC50", "read by": "plaque count", "agent": "Influenza B virus", "cells": "MDCK", "value": "<0.01 µg/mL"}
{"SMILES": "CC(C)(O)c1cn(-c2cccc3ccccc23)nn1", "strain": "URM 4607", "measure": "inhibition", "dose": "2048 µg/mL", "read by": "broth dilution", "agent": "Candida parapsilosis", "value": "0%"}
{"SMILES": "CCCC(CCC)C(NC(C)=O)C1CC(C(=O)O)CC1N=C(N)N", "strain": "H1N1 A/PR/8/34", "measure": "EC50", "agent": "Influenza A virus", "cells": "MDCK", "value": "0.7 µM"}
{"SMILES": "Cc1cc(OCCCc2ccc(C(C)F)nn2)ccc1-c1noc(C(F)F)n1", "measure": "EC50", "read by": "cytopathic effect", "agent": "Enterovirus", "cells": "HeLa", "value": "0.033–0.659 µg/mL"}
{"SMILES": "N#Cc1cc([N+](=O)[O-])ccc1Oc1ccc(Cl)c(Cl)c1", "strain": "TYPE A21", "measure": "inhibition", "dose": "12.5 µg/mL", "agent": "Coxsackie virus", "cells": "VERO", "value": ">99%"}
{"SMILES": "CCCc1nc(-c2c(C)cc(OCCCc3ccc(CO)nn3)cc2C)no1", "measure": "EC50", "read by": "cytopathic effect", "agent": "Enterovirus", "cells": "HeLa", "value": "0.033–0.659 µg/mL"}
{"SMILES": "CCC(CC)O[C@@H]1C=C(C(=O)O)C[C@H](N)[C@H]1NC(C)=O", "strain": "Influenza A/Washington/897/80 (H3N2)", "measure": "EC50", "read by": "visual reading", "agent": "Influenza A virus", "cells": "MDCK", "value": "<0.01 µM"}
{"SMILES": "Fc1cccc(-n2c(=S)oc3ccc(F)cc3c2=S)c1", "strain": "My 235/80", "measure": "MIC", "setting": "14 d", "agent": "Mycobacterium kansasii", "value": "16 µM"}
{"SMILES": "Nc1ncnc2c1ncn2[C@@H]1C=C[C@@H](O)[C@H]1O", "strain": "BIL", "measure": "EC50", "read by": "cytopathic effect", "agent": "Measles virus", "cells": "CV-1", "value": ">10 µg/mL"}
{"SMILES": "CC(C)N=C(N)/N=C(\\N)NOCCCOc1cc(Cl)c(Cl)cc1Cl", "strain": "CFR", "measure": "MIC", "agent": "Mycobacterium avium complex", "value": "32 µg/mL"}
{"SMILES": "CCO/N=C/c1ccc(OCCC2CCN(c3ccc(Cl)nn3)CC2)cc1", "strain": "JM1 (ICAM-1 receptor group 91)", "measure": "EC50", "read by": "neutral red", "agent": "Rhinovirus", "cells": "KB", "value": "0.258 µM"}
{"SMILES": "CC(C)(O)c1cn(-c2ccc([N+](=O)[O-])cc2)nn1", "strain": "URM 4127", "measure": "inhibition", "dose": "2048 µg/mL", "read by": "broth dilution", "agent": "Candida albicans", "value": "0%"}
{"SMILES": "Cc1cc(OCCCc2ccc(Cl)nn2)cc(C)c1-c1noc(C(F)F)n1", "measure": "EC50", "read by": "cytopathic effect", "agent": "Enterovirus", "cells": "HeLa", "value": "0.033–0.659 µg/mL"}
{"SMILES": "Nc1ncnc2c1ncn2[C@@H]1CC[C@@H](O)[C@H]1O", "measure": "EC50", "read by": "neutral red", "agent": "Measles virus", "cells": "CV-1", "value": "<0.1 µg/mL"}
{"SMILES": "Cc1ccc2oc(=S)n(-c3ccc(Cl)c(Cl)c3)c(=S)c2c1", "strain": "6509/96", "measure": "MIC", "setting": "14 d", "agent": "Mycobacterium kansasii", "value": "8 µM"}
{"SMILES": "CC(C)(O)c1cn(-c2ccc3ccccc3c2)nn1", "strain": "URM 1059", "measure": "inhibition", "dose": "2048 µg/mL", "read by": "broth dilution", "agent": "Candida krusei", "value": "0%"}
{"SMILES": "CCc1ccc(CCCOc2c(C)cc(-c3nnn(C)n3)cc2C)o1", "measure": "EC50", "read by": "cytopathic effect", "agent": "Enterovirus", "cells": "HeLa", "value": "0.033–0.659 µg/mL"}
{"SMILES": "CCC(C)CC(C)CCCCCCCCC(=O)N[C@H]1C[C@@H](O)[C@H](NCCN)NC(=O)[C@@H]2[C@@H](O)CCN2C(=O)[C@H]([C@H](O)CCN)NC(=O)[C@H]([C@H](O)[C@@H](O)c2ccc(O)cc2)NC(=O)[C@@H]2C[C@@H](O)CN2C(=O)[C@H]([C@@H](C)O)NC1=O", "strain": "CBS 11816", "measure": "MIC", "read by": "broth dilution", "agent": "Cryptococcus gattii", "value": "16 µg/mL"}
{"SMILES": "O=c1oc2ccc(Br)cc2c(=S)n1-c1ccc(F)cc1", "strain": "My 235/80", "measure": "MIC", "setting": "14 d", "agent": "Mycobacterium kansasii", "value": "8 µM"}
{"SMILES": "OC[C@H]1O[C@@H](n2c(Cl)nc3cc(Cl)c(Cl)cc32)[C@H](O)[C@@H]1O", "strain": "R56", "measure": "EC95", "read by": "virus yield", "agent": "Human cytomegalovirus", "value": "5.2 µM"}
{"SMILES": "Cc1cc(CCCOc2c(C)cc(-c3noc(C(F)(F)F)n3)cc2C)on1", "strain": "Isolate 1", "measure": "EC50", "read by": "cytopathic effect / visual reading", "agent": "Rhinovirus", "cells": "OHIO HELA-I", "value": "10 µg/mL"}
{"SMILES": "CCCC(CCC)C(NC(C)=O)C1C(N=C(N)N)CC(C(=O)O)C1O", "strain": "Influenza A/Washington/897/80 (H3N2)", "measure": "EC50", "agent": "Influenza A virus", "cells": "MDCK", "value": "<0.01 µM"}
{"SMILES": "CS[C@H]1C[C@@H](n2cnc3c(N)ncnc32)[C@H](O)[C@@H]1O", "measure": "EC50", "read by": "neutral red", "agent": "Measles virus", "cells": "CV-1", "value": ">100 µg/mL"}

The last 5 rows once more:

SMILES | strain | measure | setting | dose | read by | agent | cells | value
O=c1oc2ccc(Br)cc2c(=S)n1-c1ccc(F)cc1 | My 235/80 | MIC | 14 d | - | - | Mycobacterium kansasii | - | 8 µM
OC[C@H]1O[C@@H](n2c(Cl)nc3cc(Cl)c(Cl)cc32)[C@H](O)[C@@H]1O | R56 | EC95 | - | - | virus yield | Human cytomegalovirus | - | 5.2 µM
Cc1cc(CCCOc2c(C)cc(-c3noc(C(F)(F)F)n3)cc2C)on1 | Isolate 1 | EC50 | - | - | cytopathic effect / visual reading | Rhinovirus | OHIO HELA-I | 10 µg/mL
CCCC(CCC)C(NC(C)=O)C1C(N=C(N)N)CC(C(=O)O)C1O | Influenza A/Washington/897/80 (H3N2) | EC50 | - | - | - | Influenza A virus | MDCK | <0.01 µM
CS[C@H]1C[C@@H](n2cnc3c(N)ncnc32)[C@H](O)[C@@H]1O | - | EC50 | - | - | neutral red | Measles virus | CV-1 | >100 µg/mL

a–b is a range or a potency band. Percent inhibition refers to the dose given; in toxicity tests it is the harm to the cells. MIC50, MIC90 and the like: level of inhibition, or share of isolates inhibited. Blank or dashed fields: not listed here. Lines come from different laboratories, so protocols vary.